Compound potency records, mixed from different reports. Data source: NIAID ChemDB in PubChem.

All rows: tests on isolated targets; organism: Pneumocystis carinii; target: Dihydrofolate reductase; measure: IC50

ICn: concentration for n% inhibition. Neighbouring rows are from separate reports.

| compound | value |
|---|---|
| COc1ccc(OC)c(CCc2cc3c(=O)[nH]c(N)nc3[nH]2)c1 | >15 µM |
| Nc1nc(N)c2cc(COC(=O)c3cccs3)ccc2n1 | 0.27 µM |
| Nc1nc(N)c2cc3c(nc2n1)-c1ccccc1CC3 | 15.8 µM |
| Nc1nc(N)c2cc(COC(=O)c3ccccc3)ccc2n1 | 0.6 µM |
| Nc1nc(N)c2cc3c(ccc4ccccc43)nc2n1 | 0.19 µM |
| COc1cc(C(C)Cc2c[nH]c3nc(N)nc(N)c23)cc(OC)c1OC | 2.22 µM |
| COc1cccc(OC)c1-c1cccc(C(=O)OCc2ccc3nc(N)nc(N)c3c2)c1 | 1.6 µM |
| COc1ccc(CCc2cc3c(=O)[nH]c(N)nc3[nH]2)cc1 | >18 µM |
| CC(Cc1c[nH]c2nc(N)nc(N)c12)c1ccc(-c2ccccc2)cc1 | 1.99 µM |
| CC1(C)C2Cc3c(N)nc(N)nc3C1C2 | 77 µM |
| Nc1nc(N)c2cc(COC(=O)c3cccc(-c4ccccc4)c3)ccc2n1 | 0.38 µM |
| CC(C)(C)C1CCc2nc(N)nc(N)c2C1 | 0.18 µM |
| Nc1nc(N)c2cc3ccc4ccccc4c3nc2n1 | >0.4 µM |
| Cc1ccc(CCc2cc3c(=O)[nH]c(N)nc3[nH]2)cc1 | >18 µM |
| Cc1cc(C)cc(C(=O)OCc2ccc3nc(N)nc(N)c3c2)c1 | 0.52 µM |
| CC/C=C/CC1=C(C)Cc2c(N)nc(N)nc21 | 176 µM |
| COc1ccc2c(c1)CCc1nc3nc(N)nc(N)c3cc1-2 | 7.7 µM |
| Nc1nc2[nH]c(CCc3ccccn3)cc2c(=O)[nH]1 | >19 µM |

Repeating the final 2 entries:

compound	value
COc1ccc2c(c1)CCc1nc3nc(N)nc(N)c3cc1-2	7.7 µM
Nc1nc2[nH]c(CCc3ccccn3)cc2c(=O)[nH]1	>19 µM